Source: patent US6124354A, “Arylcycloalkane carboxylic esters, their use, pharmaceutical compositions and preparation” (dated 2000)
pKi: −log10 of the molar value. Like-named read-outs stand apart in the source and are kept apart here.

Protein sequences, listed by entry. Tags and fused reporters are not part of them. Residues count along the entry.
UniProt H0VRN8, 1-466: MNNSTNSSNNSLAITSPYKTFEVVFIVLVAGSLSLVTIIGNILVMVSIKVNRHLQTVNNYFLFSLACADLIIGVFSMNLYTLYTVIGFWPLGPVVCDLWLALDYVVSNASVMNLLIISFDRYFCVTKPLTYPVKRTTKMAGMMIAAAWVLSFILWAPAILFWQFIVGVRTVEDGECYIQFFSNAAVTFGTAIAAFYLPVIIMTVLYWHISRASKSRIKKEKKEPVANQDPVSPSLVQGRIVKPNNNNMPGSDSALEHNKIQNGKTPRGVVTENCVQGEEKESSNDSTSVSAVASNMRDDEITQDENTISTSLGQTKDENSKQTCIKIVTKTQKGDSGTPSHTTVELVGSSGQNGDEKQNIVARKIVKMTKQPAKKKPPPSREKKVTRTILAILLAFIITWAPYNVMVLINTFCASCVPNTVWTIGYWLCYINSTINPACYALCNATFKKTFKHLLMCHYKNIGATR
UniProt H0W1Z3, 1-590: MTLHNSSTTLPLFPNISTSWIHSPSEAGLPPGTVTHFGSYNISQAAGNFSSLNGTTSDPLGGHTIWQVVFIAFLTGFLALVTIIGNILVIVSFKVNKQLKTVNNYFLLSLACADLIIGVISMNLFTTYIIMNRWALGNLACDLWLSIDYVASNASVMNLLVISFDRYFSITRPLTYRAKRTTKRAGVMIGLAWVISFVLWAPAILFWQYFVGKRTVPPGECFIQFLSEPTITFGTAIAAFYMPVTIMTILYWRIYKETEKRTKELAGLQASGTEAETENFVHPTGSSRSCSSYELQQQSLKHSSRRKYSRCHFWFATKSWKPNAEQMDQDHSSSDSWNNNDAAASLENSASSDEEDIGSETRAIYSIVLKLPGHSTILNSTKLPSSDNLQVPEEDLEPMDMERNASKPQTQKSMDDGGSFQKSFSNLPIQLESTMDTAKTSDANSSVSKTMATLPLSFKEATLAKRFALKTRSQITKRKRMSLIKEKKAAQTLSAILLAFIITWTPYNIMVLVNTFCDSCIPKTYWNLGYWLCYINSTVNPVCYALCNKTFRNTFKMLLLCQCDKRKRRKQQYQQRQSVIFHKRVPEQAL
UniProt H0W7K7, 1-460: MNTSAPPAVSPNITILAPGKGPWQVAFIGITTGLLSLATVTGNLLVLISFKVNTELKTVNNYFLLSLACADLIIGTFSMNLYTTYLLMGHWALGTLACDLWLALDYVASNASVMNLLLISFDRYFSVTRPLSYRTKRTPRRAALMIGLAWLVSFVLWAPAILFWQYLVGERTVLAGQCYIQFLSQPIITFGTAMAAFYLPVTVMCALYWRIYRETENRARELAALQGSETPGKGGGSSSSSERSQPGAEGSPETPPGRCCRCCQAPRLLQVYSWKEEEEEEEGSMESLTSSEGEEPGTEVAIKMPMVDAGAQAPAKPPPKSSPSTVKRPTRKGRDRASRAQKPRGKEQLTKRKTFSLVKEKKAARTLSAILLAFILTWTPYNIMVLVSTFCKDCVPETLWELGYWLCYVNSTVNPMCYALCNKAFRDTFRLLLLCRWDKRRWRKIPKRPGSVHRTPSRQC

Columns and labels:
[1] = target: heart (M2 receptor) (Cavia porcellus, UniProt H0VRN8); experiment: Receptor binding assay, (-)3H-QNB competition, heart (M2)
[2] = target: parotid (M3 receptor) (Cavia porcellus, UniProt H0W1Z3); experiment: Receptor binding assay, (-)3H-QNB competition, parotid gland (M3)
[3] = target: cortex (M1 receptor) (Cavia porcellus, UniProt H0W7K7); experiment: Receptor binding assay, (-)3H-QNB competition, cerebral cortex (M1)
[4] = read-out: M2 (Ki), Table 4, (-)3H-QNB 2 nM
[5] = read-out: M3 (Ki), Table 4, (-)3H-QNB 2 nM
[6] = read-out: M1 (Ki), Table 4, (-)3H-QNB 2 nM
[7] = read-out: M2 (Ki), Table 2, (-)3H-QNB 2 nM
[8] = read-out: M3 (Ki), Table 2, (-)3H-QNB 2 nM
[9] = read-out: M1 (Ki), Table 2, (-)3H-QNB 2 nM
[10] = read-out: Ki M1, Table 1, (-)3H-QNB 2 nM
[11] = read-out: Ki M2, Table 1, (-)3H-QNB 2 nM
[12] = read-out: Ki M3, Table 1, (-)3H-QNB 2 nM
[13] = read-out: M2 (Ki), Table 3, (-)3H-QNB 2 nM
[14] = read-out: M3 (Ki), Table 3, (-)3H-QNB 2 nM
[15] = read-out: M1 (Ki), Table 3, (-)3H-QNB 2 nM

SMILES | pKi [1, 7] | pKi [2, 8] | pKi [3, 9] | also measured
COC1CCC(C(=O)OCCN(C(C)C)C(C)C)(c2ccccc2)CC1 (centres unmarked) |  |  |  | pKi [1, 4]: 7.26; pKi [2, 5]: 6.36; pKi [3, 6]: 7.41
CC(C)N(CCOC(=O)C1(c2ccc([N+](=O)[O-])cc2)CCC1)C(C)C | 7.08 | 6.43 | 7.49 | 
CC(C)N(CCOC(=O)C1(c2ccccc2)CC(C)(C)C1)C(C)C | 8.66 | 8.80 | 9.52 | 
CCN(CC)CCCOC(=O)C1(c2ccccc2)CCC1 | 7.17 | 7.55 | 8.15 | 
CN1[C@@H]2CC[C@H]1C[C@@H](OC(=O)C1(c3ccccc3)CCC1)C2 (relative stereo) | 7.59 | 8.28 | 8.68 | 
CN1CCCC(COC(=O)C2(c3ccccc3)CCC2)C1 (centres unmarked) | 7.21 | 7.52 | 8.19 | 
C=C1CC(C(=O)OCCN(C(C)C)C(C)C)(c2ccccc2)C1 | 8.47 | 8.20 | 8.92 | 
CCN(CC)CCOC(=O)C1(c2ccccc2)CC(CC)(CC)C1 |  |  | 7.57 | 
CCN(CC)CCOC(=O)C1(c2ccccc2)CCC1 | 7.52 | 7.52 | 8.38 | 
O=C(OC1CN2CCC1CC2)C1(c2cccs2)CCC1 (centres unmarked) |  | 8.70 |  | 
CCN(CC)CCOC(=O)C1(c2ccccc2)CC(C)(C)C1 | 8.41 | 8.82 | 9.40 | 
CN1CCCCC1COC(=O)C1(c2ccccc2)CCC1 (centres unmarked) | 7.52 | 7.52 | 8.38 | 
CN1[C@@H]2CC[C@H]1C[C@@H](OC(=O)C(CO)c1ccccc1)C2 (some centres unmarked) |  |  |  | pKi [3, 10]: 9.52
CC(C)N(CCOC(=O)[C@]1(c2ccccc2)C[C@H]1COCc1ccccc1)C(C)C (relative stereo) |  |  |  | pKi [1, 11]: 7.30; pKi [2, 12]: 6.80; pKi [3, 10]: 8.00
CN1CCCC(COC(=O)C2(c3ccccc3)CC(C)(C)C2)C1 (centres unmarked) | 8.20 | 8.68 | 9.30 | 
CC(C)N(CCOC(=O)C1(c2ccsc2)CCC1)C(C)C | 8.03 | 7.46 | 8.48 | 
CCN(CC)CCOC(=O)C1(c2cccs2)CCCC1 |  |  |  | pKi [1, 13]: 7.51; pKi [2, 14]: 7.55; pKi [3, 15]: 8.49
CCC1(CC)CC(C(=O)OCCN(C(C)C)C(C)C)(c2ccccc2)C1 | 8.04 | 7.85 | 8.77 | 
CN1CCC(OC(=O)C2(c3cccs3)CCCC2)CC1 |  |  |  | pKi [1, 13]: 8.36; pKi [2, 14]: 8.59; pKi [3, 15]: 8.96
O=C(OC1CN2CCC1CC2)C1(c2ccccc2F)CCC1 (centres unmarked) |  | 8.72 | 9.52 | 
COc1ccc(C2(C(=O)OC3CN4CCC3CC4)CCC2)cc1 (centres unmarked) | 6.74 |  | 7.85 | 
O=C(OCC1CN2CCC1CC2)C1(c2ccccc2)CCC1 (centres unmarked) | 7.89 | 8.14 | 8.89 | 
CC(C)N(CCOC(=O)C1(c2ccccc2)CCCCC1)C(C)C |  |  |  | pKi [1, 4]: 8.04; pKi [2, 5]: 7.54; pKi [3, 6]: 8.46
O=C(OC1CN2CCC1CC2)C1(c2cccc([N+](=O)[O-])c2)CCC1 (centres unmarked) |  |  | 7.68 | 
O=C(OCCN1CCCC1)C1(c2ccccc2)CCC1 | 7.05 | 7.28 | 7.85 | 
CN1CCC(OC(=O)C2(c3ccccc3)CCC2)CC1 | 8.48 | 8.66 | 9.30 | 
CC(C)N(CCOC(=O)[C@]1(c2ccccc2)CC[C@H]1C)C(C)C (relative stereo) | 7.55 | 6.89 | 7.74 | 

SMILES | pKi [1, 7] | pKi [2, 8] | pKi [3, 9] | also measured
O=C(OC1CN2CCC1CC2)C1(c2ccccc2)CCCCC1 (centres unmarked) |  |  |  | pKi [1, 4]: 8.38
CC(C)N(CCOC(=O)C1(c2ccccc2)CC(O)C1)C(C)C (centres unmarked) | 6.80 | < 6.30 | 7.13 | 
O=C(OC1CN2CCC1CC2)C1(c2ccsc2)CCCC1 (centres unmarked) |  |  |  | pKi [1, 13]: 8.25; pKi [2, 14]: 8.80
CC(C)N(CCOC(=O)C1(c2ccccc2)CCC1)C(C)C | 7.82 | 7.18 | 8.24 | 
CC(C)N(CCOC(=O)C1(c2cccc3ccccc23)CCC1)C(C)C | 7.60 | 7.00 | 7.70 | 
O=C(OC1CN2CCC1CC2)C1(c2cccc3ccccc23)CCC1 (centres unmarked) | 7.74 |  | 8.44 | 
CC1(C)CC(C(=O)OC2CN3CCC2CC3)(c2ccccc2)C1 (centres unmarked) |  | 9.52 |  | 
COC[C@@H]1C[C@@]1(C(=O)OCCN(C(C)C)C(C)C)c1ccccc1 (relative stereo) |  |  |  | pKi [1, 11]: 7.80; pKi [2, 12]: 7.39; pKi [3, 10]: 8.37
O=C(OC1CN2CCC1CC2)C1(c2cccs2)CCCC1 (centres unmarked) |  |  |  | pKi [2, 14]: 8.80; pKi [3, 15]: 9.52
CC(C)N(CCOC(=O)C1(c2ccc([N+](=O)[O-])cc2[N+](=O)[O-])CCC1)C(C)C | 6.48 | 5.96 | 6.46 | 
CC(C)N(CCOC(=O)C1(c2cccc(N)c2)CCC1)C(C)C | 7.03 | 6.74 | 7.66 | 
COC[C@@H]1C[C@]1(C(=O)OCCN(C(C)C)C(C)C)c1ccccc1 (relative stereo) |  |  |  | pKi [1, 11]: 6.80; pKi [2, 12]: 7.00; pKi [3, 10]: 8.24
Cc1cccc(C2(C(=O)OC3CN4CCC3CC4)CCC2)c1 (centres unmarked) | 8.07 | 8.64 | 9.22 | 
CC(C)N(CCOC(=O)[C@]1(c2ccccc2)C[C@H]1CO)C(C)C (relative stereo) |  |  |  | pKi [1, 11]: 6.28; pKi [2, 12]: 5.92; pKi [3, 10]: 7.16
CCN(CC)CCOC(=O)C1(c2ccsc2)CCCC1 |  |  |  | pKi [1, 13]: 7.40; pKi [2, 14]: 7.54; pKi [3, 15]: 8.43
COC1CCC(C(=O)OC2CN3CCC2CC3)(c2ccccc2)CC1 (centres unmarked) |  |  |  | pKi [2, 5]: 8.03
CN1[C@@H]2CC[C@H]1CC(OC(=O)C1(c3cccs3)CCCC1)C2 (some centres unmarked) |  |  |  | pKi [1, 13]: 7.68; pKi [2, 14]: 8.00; pKi [3, 15]: 8.48
CC(C)N(CCOC(=O)C1(c2ccc3c(c2)OCO3)CCC1)C(C)C | 8.28 | 7.27 | 7.89 | 
CC(C)N(CCOC(=O)C1(c2ccsc2)CCCC1)C(C)C |  |  |  | pKi [1, 13]: 8.08; pKi [2, 14]: 7.66; pKi [3, 15]: 8.52
CC(C)N(CCOC(=O)C1(c2ccccc2)CCC2(CC1)OCCO2)C(C)C |  |  |  | pKi [1, 4]: 7.43; pKi [2, 5]: 6.70; pKi [3, 6]: 7.82
CC(C)N(CCOC(=O)[C@@]1(c2ccccc2)CC[C@H]1C)C(C)C (relative stereo) | 7.17 | 6.68 | 7.60 | 
CC(C)N(CCOC(=O)C1(c2ccccc2)CC2(CCC2)C1)C(C)C | 8.59 | 8.70 | 9.52 | 
CC1C(OC(=O)C2(c3ccccc3)CCC2)C2CCN1CC2 (centres unmarked) | 8.28 |  |  | 
CC(C)N(CCOC(=O)C1(c2cccs2)CCCC1)C(C)C |  |  |  | pKi [1, 13]: 7.85; pKi [2, 14]: 7.66; pKi [3, 15]: 8.57
CN1CCCC(COC(=O)C2(c3cccs3)CCCC2)C1 (centres unmarked) |  |  |  | pKi [1, 13]: 7.47; pKi [2, 14]: 7.54; pKi [3, 15]: 8.21
COc1cccc(C2(C(=O)OC3CN4CCC3CC4)CCC2)c1 (centres unmarked) |  | 7.42 | 8.12 | 
CC(C)N(CCOC(=O)C1(c2ccccc2)CCCC1)C(C)C |  |  |  | pKi [1, 13]: 8.07; pKi [2, 14]: 7.68; pKi [3, 15]: 8.44
